Measurements from “University of Dundee, Small-Polar-MMV Screening Library” (2021), ChEMBL document CHEMBL3988442.

Results are given as percent effect. The controls that fix the scale are not given in the record; negative values are as filed. This is part of a subset picked to be rich in strong results. A dash means the value is not listed here; it may have been measured.

Mtb glucose medium: 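Whole-cell growth test on Mycobacterium tuberculosis, read after 3 days in glucose-containing 7H9 medium; the read-out is not stated. Concentration: 500 µM. Higher reads as more growth inhibition (inferred: compounds with an IC50 in retests scored well above the rest). Of about 18,000 compounds tested this way, about 1,400 (7.9%) reached 50% or more in at least one test.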
Mtb cholesterol medium: 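Whole-cell growth test on Mycobacterium tuberculosis, read after 4 days in a medium based on cholesterol and the lipid DPPC; the read-out is not stated. Concentration: 500 µM. Direction is inferred from retests: higher values go with more growth inhibition. Of about 18,000 compounds tested this way, about 900 (5%) reached 50% or more in at least one test.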

| Compound | Mtb glucose medium | Mtb cholesterol medium |
|---|---|---|
| `O=C(CSc1ccncc1)N1CCCC2(CCOC2)C1` (stereo not given) | - | 2.948% |
| `CNC(=O)C1(C)CCN(C(=O)c2n[nH]c(N)c2Cl)CC1` | 7.64% | - |
| `O=C(COCC(F)(F)F)NCc1cn2ccccc2n1` | 54.79% | - |
| `CS(=O)(=O)N1CCOc2ncccc21` | -3.525% | - |
| `COc1ccc(OC)c(-n2c(CCN)n[nH]c2=O)c1` | -7.193% | - |
| `Cn1cc(C(=O)NCc2ccccc2F)cn1` | 36.12% | - |
| `O=C(C1CC1)N1CCN(Cc2cccc(F)c2)CC1` | 65.91% | 60.75% |
| `NS(=O)(=O)NCc1ccc2c(c1)OCO2` | 32.34% | 21.21% |
| `O=C(CCS(=O)(=O)c1ccccn1)NC1CCCCC1` | 13.7% | - |
| `CCC(NCCn1cc(C)cn1)C(N)=O` (stereo not given) | 6.501% | - |
| `CC(C)N(Cc1ccccn1)C(=O)c1cc(Cl)c[nH]1` | 55.33% | - |
| `CN(Cc1ccccc1O)C(=O)C1CCOCC1` | 17.17% | - |
| `Cc1ccc(CCNC(=O)CSCCN2CCCC2)o1` | 53.81% | - |
| `COCCn1cnnc1CCNC(=O)c1cnccn1` | -2.844% | - |
| `CC(=O)NC1(c2nc(C)cs2)CCNC1` (stereo not given) | -5.06% | - |
| `O=C(Nc1cccc(Cl)c1)N1CCCNCC1` | - | 15.45% |
| `CN(C)c1ncc(CO)n1C` | 8.126% | - |
| `CCNC(=O)CCN1C[C@H](C2CC2)[C@@H](N)C1` | - | 4.508% |
| `COCCN1CCCC(Nc2ccc(Cl)cn2)C1` (stereo not given) | 70.67% | 70.19% |
| `CN(CC(O)C(F)(F)F)C(=O)c1cccc(C#N)c1` (stereo not given) | - | 10.9% |
| `Cc1cc(=O)[nH]c(C2(N)CCCC2)n1` | 11.52% | -2.848% |
| `Cc1nc(C)c(C)c(NCC(O)c2ccccn2)n1` (stereo not given) | -6.008% | - |
| `Cc1cccc(C(=O)NCCCNS(C)(=O)=O)c1O` | - | 17.64% |
| `CC(=O)NCCCN1CCC(CNc2ccccn2)C1` (stereo not given) | 9.7% | - |
| `CC(C)CCNC(=O)Cn1c(=O)oc2ccccc21` | 67.93% | 87.18% |
| `C1CC(OC2CCNCC2)C1` | 6.115% | - |
| `CSCC(CCO)NC(=O)c1cnn(C)c1C` (stereo not given) | 20.34% | 1.63% |
| `Cc1nnc(NC(=O)CCNC(=O)C(C)C)s1` | -0.1096% | - |
| `C[C@@H](N)c1ccc(Cl)cn1` | - | 2.431% |
| `COC(=O)N(C)CC(=O)NCc1ccccc1` | 13.25% | - |
| `Cc1nnc(SCCSC(C)(C)C)n1CC(N)=O` | 15.94% | - |
| `N#CC(c1ccc(F)cc1)N1CCNCC1` (stereo not given) | 1.057% | - |
| `CC(C)CNC(=O)c1cc(F)cc(F)c1` | 1.785% | 6.02% |
| `CC(=O)NCCCSCc1csc(NC(C)=O)n1` | -0.4497% | - |
| `CCNC(=O)NC(=O)CN(C)Cc1ccc(Br)o1` | 21.28% | - |
| `CCn1cnnc1CNC(=O)c1cc(Cl)c(Cl)n1C` | - | -5.018% |
| `Cc1ccc(-c2nc(CSc3nnc(N)[nH]3)no2)cc1` | 66.94% | 76.56% |
| `CC1(C)CC(C(=O)NCCNc2cccnc2)CCO1` (stereo not given) | - | 6.412% |
| `CCNC(=O)CNc1ccc(Br)cc1` | 74.37% | 73.91% |
| `CCOCC(C)Nc1ccc(C)c(S(C)(=O)=O)c1` (stereo not given) | 43.06% | 69.69% |
| `CC(C)(C)OC(=O)Nc1cnsn1` | - | 2.036% |
| `CC(=O)Nc1nc(COc2ccc(C)cn2)cs1` | 82.95% | 82.97% |
| `NCC(O)CN1CCc2ccccc2C1` (stereo not given) | 28.61% | 3.858% |
| `Cc1ccc2oc(CNC(C)(CO)CO)cc2c1` | - | 6.262% |
| `O=C(Nc1ccccc1)C1CCCN1` (stereo not given) | 1.896% | -8.606% |
| `Cc1cc(Br)oc1C(=O)Nc1ncccc1O` | 72.96% | 75.41% |
| `COC(CNC(=O)N1CCSCC1)c1ccc(F)cc1` (stereo not given) | 61.85% | 48.84% |
| `COc1cnc(N2C[C@H](C(C)C)[C@@H](N)C2)nc1` | 17.89% | - |
| `Cc1cc(N)n(CC(=O)NCC2CCCOC2)n1` (stereo not given) | 1.604% | - |
| `OC1(c2c(F)cccc2F)CCNCC1` | 3.223% | - |
| `Cc1ccc(CN)nc1` | 45.52% | 22.15% |
| `Cc1ncc(C(=O)NCc2ccnn2C)c(O)c1Br` | -6.104% | - |
| `COCCNCCNC(=O)C1CSc2ccccc21` (stereo not given) | -0.7066% | - |
| `c1cncc(-c2ccnn2CN2CCSCC2)c1` | - | 6.713% |
| `Cc1cc(C)c(C#N)c(N2C[C@@H]3CCN(C)[C@@H]3C2)n1` | -0.5764% | -9.268% |
| `CC(C)c1ccc(S(=O)(=O)C(C)C(N)=O)cc1` (stereo not given) | 57.41% | 67.71% |
| `CN(CCn1cccn1)C(=O)c1ccc(CN)cc1` | 7.515% | - |
| `O=C(NC1CCN(C2CCOCC2)CC1)c1ccoc1` | -2.827% | - |
| `Cc1noc(CS(=O)(=O)CC(=O)N2CCCC(C)C2)n1` (stereo not given) | 11.5% | - |
| `Cc1cnn(CCNCc2ccc(C(N)=O)cc2)c1` | - | 2.82% |
| `CN(CCc1ccccc1)CCS(=O)(=O)CCC(N)=O` | 86.91% | 73.96% |
| `COCCN(CCN(C)C)C(=O)Nc1ccncc1` | -2.214% | - |
| `CC1Cc2ccccc2N1CCN` (stereo not given) | 77.97% | 74.04% |
| `NCCS(=O)(=O)Cc1ccccc1` | 6.627% | - |
| `CC(C)Oc1cc(CN)ccn1` | - | 20.67% |
| `OCCOc1ccc(CNCCn2cccn2)c(Br)c1` | 43.37% | - |
| `NCCc1nc(C2CC2)cs1` | 57.05% | 71.4% |
| `OC1CCN(Cc2ccc3c(c2)CCC3)C1` (stereo not given) | 60.61% | - |
| `CCOc1cc(C)ccc1CN` | -1.524% | - |
| `Cc1nnc(NC(=O)NCC2CCNCC2)s1` | - | -10.63% |
| `CNc1ccnc(N2CCCC3(CN(C)C(=O)O3)C2)n1` (stereo not given) | - | -4.21% |
| `Cc1nc(C(=O)NCC2(N(C)C)CCOCC2)cs1` | -4.648% | - |
| `CC(C)(C)OC(=O)N1CCN(c2cc(N)ncn2)CC1` | 0.01482% | - |
| `Cc1cnc(C2CCCN(C(=O)c3nc(=O)[nH][nH]3)C2)s1` (stereo not given) | - | 4.093% |
| `COC(=O)c1cc(NC(=O)CN(C)C)ccc1C` | 30.4% | - |
| `Cn1cc(NC(=O)NCC2(O)CCCCC2)cn1` | - | -2.539% |

Some entries from above, unchanged:

{"compound": "COCCn1cnnc1CCNC(=O)c1cnccn1", "Mtb glucose medium": -2.844}
{"compound": "CC(C)(C)OC(=O)N1CCN(c2cc(N)ncn2)CC1", "Mtb glucose medium": 0.01482}
{"compound": "Cc1nnc(NC(=O)NCC2CCNCC2)s1", "Mtb cholesterol medium": -10.63}
{"compound": "CN(Cc1ccccc1O)C(=O)C1CCOCC1", "Mtb glucose medium": 17.17}
{"compound": "O=C(Nc1cccc(Cl)c1)N1CCCNCC1", "Mtb cholesterol medium": 15.45}
{"compound": "CC(=O)NCCCSCc1csc(NC(C)=O)n1", "Mtb glucose medium": -0.4497}
{"compound": "Cn1cc(NC(=O)NCC2(O)CCCCC2)cn1", "Mtb cholesterol medium": -2.539}
{"compound": "c1cncc(-c2ccnn2CN2CCSCC2)c1", "Mtb cholesterol medium": 6.713}
{"compound": "Cc1ccc2oc(CNC(C)(CO)CO)cc2c1", "Mtb cholesterol medium": 6.262}